Results of unrelated studies side by side (data: NIAID ChemDB).

Shared fields: whole-cell or culture tests; organism: Mycobacterium tuberculosis

An empty or dashed field is not shown.

structure	mutations	endpoint	read by	tested at	cells	strain or isolate	value
C=CCOc1c2c(c3c(CCC)cc(=O)oc3c1C(=O)CC)OC(C)(C)CC2		MIC				H37Ra	>128 µg/mL
Nc1ccc(C(=O)O)c(O)c1		MIC					1–2 µg/mL
CCCCCCCCCC#CCCC#CC(=O)O		MIC				H37Rv	145 µM
CC1=NC(=O)C(=Cc2ccoc2)N1c1cc(C(C)C)c(O)cc1C		inhibition		100 µg/mL		H37Rv	inactive
NC1=NC(c2cccc(Oc3ccccc3)c2)C=C(c2ccc(Cl)cc2)N1		inhibition	resazurin	6.25 µg/mL		H37Rv	87%
COc1ccccc1/C=C1\N=C(c2ccccc2)OC1=O		MIC bound	BACTEC			H37Rv	>12.5 µg/mL
CCCCc1c(O)c(-c2ccccc2)c2n(c1=O)CCC2		MIC				H37Ra	128 µg/mL
COc1ccc(CNC(=O)c2ccc([N+](=O)[O-])o2)cc1OC		MIC90					0.2 µg/mL
CN(C)CC1CCC/C(=C\c2ccc(OC(=O)/C=C/c3ccc(F)cc3)cc2)C1=O		inhibition		12.5 µg/mL		H37Rv	99%
c1ccc(-c2ccc(-c3ccc(C4=NCCN4)cc3)o2)cc1		MIC	BACTEC		VERO	H37Rv	12.5 µg/mL
COc1cc(O)cc2c1C(=O)O[C@@H](C)CCCCCCC2		MIC	agar / visual reading				≥200 µg/mL
O=C1CCCC/C1=C\c1ccc(OC(=O)c2ccc(Cl)cc2)cc1		inhibition		12.5 µg/mL		H37Rv	56%
O=C(Cc1ccccc1)N[C@@H]1C(=O)N2C(C(=O)O)=C(CN(O)C(=O)c3ccc(C(F)(F)F)cc3)CSC12		MIC				H37Rv	126.6 µM
C[C@H]1COc2c(N3CCN(C)CC3)c(F)cc3c(=O)c(C(=O)O)cn1c23		MIC90				250 isolates	1 µg/mL
O=[N+]([O-])c1cn2c(n1)OC(CCl)C2		MIC				H37Rv	0.12 µg/mL
CC(C)C1=CC[C@]2(C)[C@H](O)C[C@]3(C)C[C@@H]4O[C@]4(C)CC[C@H]3[C@H]12		inhibition		6.25 µg/mL		H37Rv	0%
CCCc1cc(=O)oc2c(C(=O)CC)c(O[Si](C)(C)C(C)(C)C)c3c(c12)OC(C)(C)CC3		MIC				H37Ra	>128 µg/mL
Cc1ccc(C(=O)N(O)CC2=C(C(=O)O)N3C(=O)[C@@H](NC(=O)Cc4ccccc4)C3SC2)cc1		MIC				H37Rv	26.7 µM
CC1(C)Cc2cc(O)c(Cc3ccccc3)c(=O)n2C1		MIC				H37Ra	>128 µg/mL
CO[C@H]1/C=C/O[C@@]2(C)Oc3c(C)c(O)c4c(O)c(c(/C=N/N5CCN(C)CC5)c(O)c4c3C2=O)NC(=O)/C(C)=C\C=C\[C@H](C)[C@H](O)[C@@H](C)[C@@H](O)[C@@H](C)[C@H](OC(C)=O)[C@@H]1C	katG mutant isoniazid resistant	MIC	resazurin / absorbance			HUG.MI.1020	0.001 µg/mL
O=c1oc2c(Cc3ccccc3)c(=O)n3c(c2c(O)c1-c1ccccc1)CCC3		MIC				H37Ra	256 µg/mL
COc1ccc2[nH]c3c(C)c4cc[n+](COC(=O)c5ccccc5)cc4c(C)c3c2c1		MIC bound	resazurin			H37Rv	<6.25 µg/mL
NC1=NC(c2cccc(Oc3ccccc3)c2)C=C(c2ccc(F)cc2)N1		MIC	resazurin			H37Rv	1.49 µg/mL
COc1cc(-c2oc3c(OC)c(OC)cc(O)c3c(=O)c2OC)ccc1O		MIC	resazurin			H37Rv	>50 µg/mL
CCOC(=O)CC(=O)Cc1oc2c(C(C)=O)c(O)c(C)c(O)c2c1C		inhibition	BACTEC	12.5 µg/mL		H37Rv	1%
CC1COc2c(N3CCN(C)CC3)c(F)cc3c(=O)c(C(=O)O)cn1c23		MIC				3181-5	2 µg/mL
CCN(CC)/N=N/c1nc[nH]c1C(N)=O		MIC	BACTEC			H37Rv	≥12.5 µg/mL
C=CCOCC1Cn2cc([N+](=O)[O-])nc2O1		MIC				H37Rv	3.9 µg/mL
C[C@H]1COc2c(N3CCN(C)CC3)c(F)cc3c(=O)c(C(=O)O)cn1c23		MIC					0.25–0.5 µg/mL
O=C(c1ccc([N+](=O)[O-])o1)N1CCc2cc(N3CCN(Cc4ccccc4)CC3)ccc2C1		MIC				UT26	0.012 µg/mL
CCCc1cc(=O)oc2c(C(=O)CC)c(OC(C)C)cc(OC(C)C)c12		MIC				H37Ra	>128 µg/mL
CCn1cc(C(=O)O)c(=O)c2cc(F)c(N3CCN(C)CC3)cc21		MIC90				55 isolates (RMP INH-R)	16 µg/mL
NNC(=O)c1ccc[n+](Cc2ccccc2)c1.[Cl-]		MIC	BACTEC			H37Rv	≥12.5 µg/mL
O=c1oc2c(-c3ccccc3)c(=O)n3c(c2c(O)c1Cc1ccccc1)CCC3		MIC				H37Ra	256 µg/mL
O=C1NC23C(=O)N(C4CCCCC4)CC2(Cc2ccccc2)c2ccccc2N3C1=O		MIC bound	BACTEC			H37Rv	>12.8 µg/mL
CC1=NC(=O)C(=Cc2ccc(O)cc2)N1c1cc(C(C)C)c(O)cc1C		inhibition		100 µg/mL		H37Rv	inactive
CC1Cn2cc([N+](=O)[O-])nc2O1		MIC				H37Rv	1.95 µg/mL
O=C(Cc1ccccc1)N[C@@H]1C(=O)N2C3=C(CSC12)CN(C(=O)c1ccc(F)cc1)OC3=O		MIC				H37Rv	23.4 µM
Cc1cc(OCCCCCCC[N+](C)(C)Cc2ccc([N+](=O)[O-])o2)c(C(C)C)cc1Cl		MIC	BACTEC			H37Rv	≥12.5 µg/mL
O=C(C=Cc1cccc(Oc2ccccc2)c1)c1ccc(Cl)cc1Cl		MIC	resazurin			H37Rv	2.16 µg/mL
COc1ccc(C2SC(CC(=O)O)C(=O)N2c2cc(C(C)C)c(O)cc2C)cc1		inhibition		100 µg/mL		H37Rv	inactive
COc1ccc(C(=O)N(O)CC2=C(C(=O)O)N3C(=O)[C@@H](NC(=O)Cc4ccccc4)C3SC2)cc1		MIC				H37Rv	61.6 µM
CC1COc2c(N3CCN(C)CC3)c(F)cc3c(=O)c(C(=O)O)cn1c23		MIC					0.5–1 µg/mL
CC1COc2c(N3CCN(C)CC3)c(F)cc3c(=O)c(C(=O)O)cn1c23		Mean MIC				250 isolates	0.893 µg/mL
COc1c(N2CC/C(=N/OCc3ccc(F)cc3)C(N)C2)c(F)cc2c(=O)c(C(=O)O)cn(C3CC3)c12		MIC	resazurin			H37Rv	4 µg/mL
O=C1O/C(=C(/C(=O)O)c2ccc(O)cc2)C(O)=C1c1cc2c3c(c(O)cc(C4=C(O)/C(=C(\C(=O)O)c5ccc(O)cc5)OC4=O)c3c1)OC2=O		inhibition	BACTEC	12.5 µg/mL		H37Rv	16%
CCOC(=O)/C=C/c1ccc(OC)cc1		MIC	resazurin			H37Rv	485 µM
O=C(/C=C/c1ccc(Br)cc1)Oc1ccc(/C=C2\CCCCC2=O)cc1		EC50				H37Rv	>12.5 µg/mL
O=C(NNC(=S)Nc1ccccc1)c1ccccn1		MIC bound	resazurin			H37Rv	>6.25 µg/mL
O=C(C=Cc1cccc(Oc2ccccc2)c1)c1ccc(F)cc1		MIC	resazurin			H37Rv	2.93 µg/mL
CC1=CC(C/C(C)=C/COc2ccc3ccc(=O)oc3c2)OC1=O		inhibition	BACTEC	12.5 µg/mL		H37Rv	23%
CCOC(=O)c1c(O)c(Cc2ccccc2)c(=O)n2c1CCC2		MIC				H37Ra	256 µg/mL
CCOC(=O)NC(C(=O)OCC)(N1CCN(c2cc3c(cc2F)c(=O)c(C(=O)O)cn3CC)CC1)C(F)(F)F		inhibition	resazurin	6.25 µg/mL		H37Rv	99%
Cc1cc(O)c(C(C)C)cc1N1C(=O)CSC1c1ccc(O)cc1		inhibition		100 µg/mL		H37Rv	inactive
C=CC1=C(C)C2=NC1=CC1=NC(=CC3=C(C)C4=C(O)C(C(=O)OC)C(=C5NC(=C2)C(C)C5CCC(=O)OC)C4=N3)C(CC)=C1C		inhibition	BACTEC	12.5 µg/mL		H37Rv	5%
O=c1c(Cc2ccccc2)c(O)cc2n1CCC2		MIC				H37Ra	>128 µg/mL
COc1c(N2CC/C(=N/OCc3ccc4c(c3)OCO4)C(N)C2)c(F)cc2c(=O)c(C(=O)O)cn(C3CC3)c12		MIC	resazurin			H37Rv	4 µg/mL
C=CCOc1cc(OCC=C)c2c(CCC)cc(=O)oc2c1C(=O)CC		MIC				H37Ra	>128 µg/mL
Oc1ccc(N=Cc2ccccc2O)cc1		inhibition		100 µg/mL		H37Rv	inactive
CO[C@@]12[C@H](COC(N)=O)C3=C(C(=O)C(C)=C(N)C3=O)N1C[C@H]1[C@@H]2N1C		MIC			VERO	H37Rv	0.8 µg/mL
CCC1Cn2cc([N+](=O)[O-])nc2O1		MIC				H37Rv	0.06 µg/mL
C[CH2][Sn]1([CH2]C)[O]S(=O)(=O)[O]1		MIC bound	BACTEC			H37Rv	>12.5 µg/mL
CCC(O)Cn1cc([N+](=O)[O-])nc1[N+](=O)[O-]		MIC				H37Rv	0.48 µg/mL
N[C@@H]1CONC1=O		MIC					10–20 µg/mL
Nc1nnc2nc(CC(=O)c3ccccc3)c(=O)[nH]n12		inhibition	BACTEC	12.5 µg/mL		H37Rv	3%
CC(C)OC(=O)c1cc[n+](CC(=O)c2ccc(F)cc2)cc1.[Br-]	XDR	MIC	resazurin				16 µg/mL
COc1cc(O)c2c(=O)c(-c3ccc(O)cc3O)coc2c1		MIC	agar / visual reading				110 µg/mL
C(=N\Nc1nnc2c(n1)[nH]c1ccccc12)/c1ccccc1		MIC bound	resazurin			H37Rv	>6.25 µg/mL
O=[N+]([O-])c1ccc(C2=NOC(c3ccc(N4CCN(Cc5ccccc5)CC4)cc3)C2)o1		MIC				UT15	0.0008 µg/mL
S=C1NC(c2ccc(Cl)cc2Cl)=CC(c2cccc(Oc3ccccc3)c2)N1		inhibition	resazurin	6.25 µg/mL		H37Rv	77%
C[C@@H]1[C@H](C)[C@@H](c2ccc(O)cc2)O[C@H]1c1ccc(O)cc1		MIC	resazurin			H37Rv	50 µg/mL
O=[N+]([O-])c1cn2c(n1)OC1(CCCC1)C2		MIC				H37Rv	0.03 µg/mL
Cc1cc(O)c2c(c1)C(=O)C[C@H](c1c(C)cc3c(c1O)C(=O)CCC3O)[C@@H]2O		MIC				H37Rv ATCC 27294 (drug-susceptible)	>100 µg/mL
O=c1[nH]nc(Cc2ccccc2)n1/N=C/c1c(O)ccc2ccccc12		MIC bound	BACTEC			H37Rv	>12.5 µg/mL
COc1cc(O)c2c(=O)c(OC)c(-c3ccc(O)cc3)oc2c1OC		MIC	resazurin			H37Rv	>50 µg/mL
O=[N+]([O-])c1cnc2n1CC(CCl)O2		MIC				H37Rv	250 µg/mL
COc1ccc(C=C2C(=O)N=C(C)N2c2cc(C(C)C)c(O)cc2C)cc1		inhibition		100 µg/mL		H37Rv	inactive
O=C1/C(=C/c2ccc(OC(=O)c3ccccc3)cc2)CCC/C1=C\c1ccc(OC(=O)c2ccccc2)cc1		EC50				H37Rv	>12.5 µg/mL
COc1ccc(CO/N=C2/CCN(c3c(F)cc4c(=O)c(C(=O)O)cn(C5CC5)c4c3OC)CC2N)cc1OC		MIC	resazurin			H37Rv	8 µg/mL
CSC(=S)NNC(C)c1nccc2ccccc12		MIC	BACTEC			H37Rv	4 µg/mL
COc1ccccc1CO/N=C1/CCN(c2c(F)cc3c(=O)c(C(=O)O)cn(C4CC4)c3c2OC)CC1N		MIC	resazurin			H37Rv	8 µg/mL
Cc1cc(O)c(C(C)C)cc1N1C(=O)C(Cl)C1/C=C/c1ccccc1		inhibition		100 µg/mL		H37Rv	inactive
C#CCOc1c2c(c3c(CCC)cc(=O)oc3c1C(=O)CC)OC(C)(C)CC2		MIC				H37Ra	>128 µg/mL
O=[N+]([O-])c1cn2c(n1)OC[C@@H](OCc1ccc(OC(F)(F)F)cc1)C2		MIC				HN878	0.024 µg/mL
O=c1c2nc3ccccc3c(=O)n2ncn1-c1ccccc1Cl		inhibition	resazurin	6.25 µg/mL		H37Rv	-1%
Cc1cc(O)c(C(C)C)cc1N1C(=O)C(C)SC1c1ccoc1		inhibition		100 µg/mL		H37Rv	inactive

Repeating the first 13 entries:

structure | mutations | endpoint | read by | tested at | cells | strain or isolate | value
C=CCOc1c2c(c3c(CCC)cc(=O)oc3c1C(=O)CC)OC(C)(C)CC2 |  | MIC |  |  |  | H37Ra | >128 µg/mL
Nc1ccc(C(=O)O)c(O)c1 |  | MIC |  |  |  |  | 1–2 µg/mL
CCCCCCCCCC#CCCC#CC(=O)O |  | MIC |  |  |  | H37Rv | 145 µM
CC1=NC(=O)C(=Cc2ccoc2)N1c1cc(C(C)C)c(O)cc1C |  | inhibition |  | 100 µg/mL |  | H37Rv | inactive
NC1=NC(c2cccc(Oc3ccccc3)c2)C=C(c2ccc(Cl)cc2)N1 |  | inhibition | resazurin | 6.25 µg/mL |  | H37Rv | 87%
COc1ccccc1/C=C1\N=C(c2ccccc2)OC1=O |  | MIC bound | BACTEC |  |  | H37Rv | >12.5 µg/mL
CCCCc1c(O)c(-c2ccccc2)c2n(c1=O)CCC2 |  | MIC |  |  |  | H37Ra | 128 µg/mL
COc1ccc(CNC(=O)c2ccc([N+](=O)[O-])o2)cc1OC |  | MIC90 |  |  |  |  | 0.2 µg/mL
CN(C)CC1CCC/C(=C\c2ccc(OC(=O)/C=C/c3ccc(F)cc3)cc2)C1=O |  | inhibition |  | 12.5 µg/mL |  | H37Rv | 99%
c1ccc(-c2ccc(-c3ccc(C4=NCCN4)cc3)o2)cc1 |  | MIC | BACTEC |  | VERO | H37Rv | 12.5 µg/mL
COc1cc(O)cc2c1C(=O)O[C@@H](C)CCCCCCC2 |  | MIC | agar / visual reading |  |  |  | ≥200 µg/mL
O=C1CCCC/C1=C\c1ccc(OC(=O)c2ccc(Cl)cc2)cc1 |  | inhibition |  | 12.5 µg/mL |  | H37Rv | 56%
O=C(Cc1ccccc1)N[C@@H]1C(=O)N2C(C(=O)O)=C(CN(O)C(=O)c3ccc(C(F)(F)F)cc3)CSC12 |  | MIC |  |  |  | H37Rv | 126.6 µM

MIC bound comes from a single tested concentration. Inhibition is in % at the dose shown (toxicity tests: loss of growth or viability). A number after MIC or MFC names an inhibition level or a share of isolates. ECn is the concentration giving n% inhibition of infection, replication or growth. Two numbers with a dash give a range or band. Rows are shuffled and stem from different studies. "inactive" is the filed call at that dose; no cut-off is given.